Laboratory results reported in publication PMC4658139 (PLoS ONE, 2015).

How the values were obtained:
in vitro [1] = conditions: pig; for Papp A→B: p c, permeability coefficient apical to basolateral
PBCEC monolayer = conditions: pig
in vitro [2] = conditions: pig

CC(=O)O[C@@H]1C[C@]2(C)[C@@]3(CO)[C@H](O)C(=O)C(C)=C[C@H]3O[C@H]1[C@@]21CO1 [3-AcDON, 3-acetyldeoxynivalenol]
recovery (in vitro [1]): ~100%
Papp A→B (in vitro [1]): 6.67 ± 1.53 ×10⁻⁶ cm/s

CC1=C[C@H]2O[C@@H]3[C@H](O)C[C@](C)([C@@]2(CO)[C@H](O)C1=O)[C@]31CO1 [DON, deoxynivalenol]
p c, permeability coefficient apical to basolateral (PBCEC monolayer): 0.88±0.29 10^-6 cm/s
viability at 10 µM (in vitro [2]): 85 ± 7%
recovery (in vitro [1]): ~100%
Papp A→B (in vitro [1]): 1.18 ± 0.31 ×10⁻⁶ cm/s
